This note sets out measurements from US20150139959A1 (priority 2009, published 2015).

One experiment has as its system Caco-2 cells. Kind of experiment: MTT bioassay of cell viability (metabolic activity). Format: cell-based, Human. Particulars: 48 h incubation.
Another experiment has as its system 3T3 mouse fibroblasts. The experiment can be described thus: Cell proliferation ELISA, BrdU incorporation (DNA synthesis). The class given is cell-based. Particulars: 24 h incubation + 12 h BrdU labeling. (ELISA stands for enzyme-linked immunosorbent assay.)

For the substance 3-keto-DON, in the experiment with Caco-2 cells, the “MTT bioassay IC50 (95% Confidence Interval)” value is given as 1.24 (0.942, 1.62) μg/mL. In the experiment with 3T3 mouse fibroblasts, the “BrdU bioassay IC50 (95% Confidence Interval)” value is recorded as 1.08 (0.681, 1.72) μg/mL.
